# According to article PMC5353780, “A novel benzo-heterocyclic amine derivative N30 inhibits influenza virus replication by depression of Inosine-5’-Monophospate Dehydrogenase activity” (Virology Journal, 2017):
# How the values were obtained:
# A/tianjinjinnan/15/2009 = type: cell-based, Influenza A virus (H1N1, oseltamivir-resistant)
# [1] = tested on: A/liaoningzhenxing/1109/2010; type: cell-based, Influenza A virus (H1N1, oseltamivir-resistant)
# A/fujiantongan/196/2009 = type: cell-based, Influenza A virus (H3N2, amantadine-resistant)
# A/hunanzhuhui/1222/2010 = assay: microbe, parasite or virus in culture; type: cell-based, Influenza A virus (H3N2, amantadine-resistant)
smiles,measurement,setting,value
"NC(=O)c1ncn([C@@H]2O[C@H](CO)[C@@H](O)[C@H]2O)n1 [RBV, Ribavirin]",SI,A/tianjinjinnan/15/2009,>78.74
same,SI,[1],>40.65
same,SI,A/fujiantongan/196/2009,>45.25
same,SI,A/hunanzhuhui/1222/2010,>85.47
same,IC50,"A/hunanzhuhui/1222/2010; Influenza A virus, MDCK",2340 ± 980 nM
